Data as given in PubChem BioAssay AID624099 (ICCB-Longwood, 2012).
Assay: 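Host factors E2 relies on to silence an HPV18 LCR reporter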 (primary screen). Cells: human C33A cervical carcinoma cells (HPV-negative) stably expressing BPV1 E2 and an HPV18 LCR luciferase reporter. Reagent: siRNA pool against human genes, 40 nM. Duration: 72 h. Read-out: 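HPV18 LCR reporter light per well, converted to plate-wise z-scores that exclude control wells, and averaged over triplicate plates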. Scale: mean z-score and z-score: higher = stronger reporter signal, weaker E2 silencing. Hit rule: 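Hit if mean z-score reaches 2 and two or more of three replicate z-scores also reach 2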.
The deposit covers about 21,000 reagents; this is a random part of them. 497 of them (2.4%) count as active. 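Higher z means weaker E2 silencing; only reporter increases were scored, and knock-downs that hurt cell survival may mask genuine repressor factors.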 Entries without a mark were called inactive.

| target | mean z-score | z-score, replicate A | z-score, replicate B | z-score, replicate C |
| --- | --- | --- | --- | --- |
| HEBP1 (heme binding protein 1) | -0.69 | -0.86 | -0.74 | -0.48 |
| CILP (cartilage intermediate layer protein) | 0.09 | 0.53 | 0.2 | -0.47 |
| DDR2 (discoidin domain receptor tyrosine kinase 2) | 0.1 | -0.13 | 0.28 | 0.17 |
| KPNA3 (karyopherin subunit alpha 3) | -0.62 | -0.4 | -0.74 | -0.7 |
| BORCS6 (BLOC-1 related complex subunit 6) | -1.18 | -1.49 | -1.17 | -0.89 |
| TMEM140 (transmembrane protein 140) | 0.68 | 0.5 | 0.48 | 1.06 |
| PON3 (paraoxonase 3) | 1.31 | 1.56 | 1.56 | 0.81 |
| JCHAIN (joining chain of multimeric IgA and IgM) | 1.05 | 1.13 | 1.08 | 0.95 |
| COL19A1 (collagen type XIX alpha 1 chain) | -0.22 | 0.11 | -0.5 | -0.26 |
| PLD1 (phospholipase D1) | 0.27 | 0.31 | -0.2 | 0.69 |
| LOC389267 (retired record) | 0.85 | 1.75 | -0.03 | 0.82 |
| NEK3 (NIMA related kinase 3) | -0.81 | -0.66 | -1.08 | -0.71 |
| AGMAT (agmatinase (putative)) | 0.43 | 0.18 | 0.49 | 0.64 |
| BRWD3 (bromodomain and WD repeat domain containing 3) | 0.79 | 0.9 | 1.14 | 0.34 |
| TMEM198 (transmembrane protein 198) | 0.37 | 0.25 | 0.49 | 0.38 |
| PRKN (parkin RBR E3 ubiquitin protein ligase) | 0.44 | 0.51 | 0.36 | 0.46 |
| TGIF2LY (TGFB induced factor homeobox 2 like Y-linked) | 0.79 | 0.7 | 0.93 | 0.73 |
| TSPAN6 (tetraspanin 6) | 0.56 | 0.4 | 0.67 | 0.61 |
| OR2M7 (olfactory receptor family 2 subfamily M member 7) | 0.99 | 1.61 | 0.58 | 0.78 |
| IFT27 (intraflagellar transport 27) | 0.59 | 0.7 | 0.68 | 0.38 |
| NELFA (negative elongation factor complex member A) | -0.88 | -0.86 | -0.77 | -1 |
| LINC01624 (long independently transcribed non-coding RNA 1624) | -0.33 | -0.3 | -0.71 | 0.04 |
| DNAI1 (dynein axonemal intermediate chain 1) | 0.05 | -0.09 | 0.08 | 0.17 |
| INAVA (innate immunity activator) | 1 | 1.05 | 0.91 | 1.03 |
| CREG2 (cellular repressor of E1A stimulated genes 2) | -0.75 | -0.86 | -1.07 | -0.34 |
| MAPK14 (mitogen-activated protein kinase 14) | -0.23 | 0.07 | -0.15 | -0.62 |
| CLDN3 (claudin 3) | -0.26 | 0.03 | -0.11 | -0.71 |
| SNX33 (sorting nexin 33) | -0.17 | 0.15 | -0.09 | -0.57 |
| PGAM5 | 2.6 (active) | 2.34 | 3.09 | 2.37 |
| LARS2 (leucyl-tRNA synthetase 2, mitochondrial) | 0.71 | 0.93 | 0.73 | 0.47 |
| MCCD1 (mitochondrial coiled-coil domain 1) | 0.35 | 0.33 | 0.35 | 0.35 |
| OR6C75 (olfactory receptor family 6 subfamily C member 75) | -0.2 | -0.47 | -0.18 | 0.06 |
| CDH20 (cadherin 20) | 0.21 | -0.22 | 0.59 | 0.25 |
| LOC401445 (retired record) | 0.15 | 0.39 | -0.01 | 0.07 |
| TAPBPL (TAP binding protein like) | -0.56 | -0.45 | -0.3 | -0.92 |
| ZFPM2 (zinc finger protein, FOG family member 2) | 0.79 | 1.34 | 0.56 | 0.47 |
| TESK1 (testis associated actin remodelling kinase 1) | -0.15 | 0.08 | -0.43 | -0.11 |
| OR5K4 (olfactory receptor family 5 subfamily K member 4) | -1.21 | -1.04 | -1.02 | -1.57 |
| CLPP | -1.18 | -0.87 | -1.5 | -1.17 |
| USP31 (ubiquitin specific peptidase 31) | -0.82 | -0.68 | -0.87 | -0.9 |
| SMG1 | -0.69 | -0.23 | -0.92 | -0.92 |
| RPS27P4 (ribosomal protein S27 pseudogene 4) | 1.74 | 1.79 | 1.8 | 1.65 |
| METTL15P1 (methyltransferase like 15 pseudogene 1) | 0.6 | 0.43 | 0.87 | 0.5 |
| RPL18AP16 (ribosomal protein L18a pseudogene 16) | 0.83 | 0.6 | 0.48 | 1.4 |
| TSPAN32 (tetraspanin 32) | -0.18 | -0.1 | -0.4 | -0.04 |
| PRPSAP1 (phosphoribosyl pyrophosphate synthetase associated protein 1) | -1.28 | -0.72 | -1.61 | -1.52 |
| PLOD1 (procollagen-lysine,2-oxoglutarate 5-dioxygenase 1) | -1.4 | -1.34 | -1.16 | -1.69 |
| MAGEC2 (MAGE family member C2) | -0.66 | -0.21 | -1.12 | -0.64 |
| PCDHA12 (protocadherin alpha 12) | -0.86 | -0.92 | -0.97 | -0.68 |
| RPL29P33 (ribosomal protein L29 pseudogene 33) | 1.31 | 1.5 | 0.97 | 1.48 |
| CRX (cone-rod homeobox) | 0.29 | 0.18 | 0.34 | 0.35 |
| DYNLRB2 (dynein light chain roadblock-type 2) | 0.79 | 0.91 | 0.67 | 0.78 |
| DNAJB3P (DnaJ heat shock protein family (Hsp40) member B3, pseudogene) | 0.13 | 0.02 | -0.01 | 0.39 |
| BLOC1S6 (biogenesis of lysosomal organelles complex 1 subunit 6) | -0.59 | -0.54 | -0.48 | -0.75 |
| ATP6V1B1 (ATPase H+ transporting V1 subunit B1) | -0.94 | -0.7 | -0.77 | -1.35 |
| RNF183 (ring finger protein 183) | 1.26 | 1.2 | 1.52 | 1.05 |
| SIGLEC1 (sialic acid binding Ig like lectin 1) | 1.25 | 1.24 | 1.32 | 1.19 |
| LINC00511 (long independently transcribed non-coding RNA 511) | 0.49 | 1.32 | -0.16 | 0.31 |
| SEPHS1P4 (selenophosphate synthetase 1 pseudogene 4) | -0.07 | -0.21 | 0.02 | -0.01 |
| GPR21 (G protein-coupled receptor 21) | -0.31 | -0.19 | -0.17 | -0.58 |
| SSRP1 (structure specific recognition protein 1) | -1.72 | -1.8 | -1.36 | -2 |
| DLGAP3 (DLG associated protein 3) | -0.22 | -0.23 | -0.22 | -0.2 |
| LDHA (lactate dehydrogenase A) | 0.28 | 0.07 | 0.54 | 0.22 |
| KRT80 (keratin 80) | 0.82 | 1.29 | 0.78 | 0.39 |
| BPIFA4P (BPI fold containing family A member 4, pseudogene) | -1.07 | -1.05 | -1.19 | -0.95 |
| ANKS4B (ankyrin repeat and sterile alpha motif domain containing 4B) | 0.16 | 0.18 | 0.05 | 0.24 |
| SACK1H (scaffolding CK1 anchoring protein H) | 0.72 | 0.78 | 0.59 | 0.79 |
| LYPLA1 (lysophospholipase 1) | -0.61 | -0.52 | -0.46 | -0.84 |
| MCM3 (minichromosome maintenance complex component 3) | 0.35 | 0.1 | 0.3 | 0.66 |
| BATF (basic leucine zipper ATF-like transcription factor) | 0.54 | 0.85 | 0.48 | 0.29 |
| PATE1 (prostate and testis expressed 1) | 0.57 | 0.34 | 0.83 | 0.52 |
| H2BC12L (H2B clustered histone 12 like) | -0.29 | 0.04 | -0.27 | -0.64 |
| AMMECR1 (AMMECR nuclear protein 1) | 0.3 | 0.65 | 0.24 | 0.03 |
